Experimental data from patent US20110306541A1, “METHODS FOR TREATING HCV” (priority 2010, published 2011).

Test system: HCV genotype 1b replicon cells (Huh-luc)
Assay: Antiviral combination studies with Compound 3, MacSynergy II
Conditions: in combination with Compound 3; mean ± SD

IFN-α
Antagonism Volume (nM^2): 0.15 ± 0.2 nM^2
Synergy Volume (nM^2): 32 nM^2 and 36.5 nM^2 and 32 ± 4.2 nM^2

Where “and” joins values, the source holds several entries; their conditions need not be identical. Identical values can stand only once.
